A mixed list of measured activities; the numbers were collected in NIAID ChemDB.

Shared fields: tests in culture

A number after MIC or MFC names an inhibition level or a share of isolates. Blank or dashed fields: not listed here. Conditions beyond the fields shown may differ between rows.

smiles,agent,strain or isolate,read by,endpoint,result
CCC(C)C(=O)C1=C(O)C(C)(C)C(=O)C(C)(C)C1=O,Enterococcus faecalis,Vancomycin-resistant,-,MIC,125 µg/mL
Cc1c(N2CCC3(CCC[C@H]3N)C2)c(F)cn2c(=O)c(C(=O)O)cc(C3CC3)c12,Enterococcus faecium,ATCC 8043,-,MIC,0.1 µg/mL
Cc1c(N2CCC(C(N)C3CC3)C2)c(F)cn2c(=O)c(C(=O)O)cc(C3CC3)c12,Enterococcus faecium,ATCC 8043,-,MIC,0.05 µg/mL
CC(C)C(=O)C1=C(O)C(C)(C)C(=O)C(C)(C)C1=O,Enterococcus faecalis,Vancomycin-resistant,-,MIC,125 µg/mL
CN(C)[C@@H]1C(=O)C(C(N)=O)=C(O)[C@@]2(O)C(=O)C3=C(O)c4c(O)c(NC(=O)CN5CCOCC5)cc(F)c4C[C@H]3C[C@@H]12,Enterococcus faecalis,159-tet,agar diffusion,MIC,8 µg/mL
CC1(C)C(=O)C(C(=O)C2CCCCC2)=C(O)C(C)(C)C1=O,Enterococcus faecalis,Vancomycin-resistant,-,MIC,125 µg/mL
Cc1c(N2CCC(N(C)C)C2)c(F)cn2c(=O)c(C(=O)O)cc(C3CC3)c12,Enterococcus faecium,ATCC 8043,-,MIC,0.2 µg/mL
CC(C)=CCC1(CC=C(C)C)C(=O)C(C(=O)C(C)C)=C(O)C(CC=C(C)C)(CC=C(C)C)C1=O,Enterococcus faecalis,Vancomycin-resistant,-,MIC,125 µg/mL
C[C@H]1C[C@H](N)CN1c1nc2c(cc1F)c(=O)c(C(=O)O)cn2-c1ccc(F)cc1F,Enterococcus faecium,ATCC 8043,-,MIC,0.12 µg/mL
CCCCCC(=O)C1=C(O)C(C)(C)C(=O)C(C)(C)C1=O,Enterococcus faecalis,Vancomycin-resistant,-,MIC,31 µg/mL
NC1[C@H]2CN(c3nc4c(cc3F)c(=O)c(C(=O)O)cn4-c3ccc(F)cc3F)C[C@@H]12,Enterococcus faecium,21 strains (vancomycin-susceptible),-,MIC,1 µg/mL
CCC[C@H](N)C1CCN(c2c(F)cn3c(=O)c(C(=O)O)cc(C4CC4)c3c2C)C1,Enterococcus faecium,ATCC 8043,-,MIC,0.01 µg/mL
Cc1c(N2CCC(C3(N)CCCCC3)C2)c(F)cn2c(=O)c(C(=O)O)cc(C3CC3)c12,Enterococcus faecium,ATCC 8043,-,MIC,0.1 µg/mL
Cc1c(N2CCC[C@H](N)C2)c(F)cn2c(=O)c(C(=O)O)cc(C3CC3)c12,Enterococcus faecium,ATCC 8043,-,MIC,0.05 µg/mL
C[C@H]1CN(c2c(F)cc3c(=O)c(C(=O)O)cn(C4CC4)c3c2OC(F)F)CCN1,Enterococcus faecium,10 strains,-,MIC50,2 µg/mL
C[C@H]1C[C@H](N)CN1c1cc2c(cc1F)c(=O)c(C(=O)O)cn2-c1ccc(F)cc1F,Enterococcus faecium,ATCC 8043,-,MIC,0.12 µg/mL
Cc1c(N(C)C)c(F)cn2c(=O)c(C(=O)O)cc(C3CC3)c12,Enterococcus faecium,ATCC 8043,-,MIC,0.2 µg/mL
Cc1c(N2CC[C@H](N)C2)c(F)cn2c(=O)c(C(=O)NCC(=O)O)cc(C3CC3)c12,Enterococcus faecium,ATCC 8043,-,MIC,50 µg/mL
Cc1c(N2CC[C@@H]([C@H](C)N)C2)c(F)cn2c(=O)c(C(=O)O)cc(C3CC3)c12,Enterococcus faecium,ATCC 8043,-,MIC,0.02 µg/mL

The last 2 rows once more:

smiles,agent,strain or isolate,read by,endpoint,result
Cc1c(N2CC[C@H](N)C2)c(F)cn2c(=O)c(C(=O)NCC(=O)O)cc(C3CC3)c12,Enterococcus faecium,ATCC 8043,-,MIC,50 µg/mL
Cc1c(N2CC[C@@H]([C@H](C)N)C2)c(F)cn2c(=O)c(C(=O)O)cc(C3CC3)c12,Enterococcus faecium,ATCC 8043,-,MIC,0.02 µg/mL